The list shows a part of the results, in another mix than the full data.
These molecules were tested on Plasmodium falciparum (assay: GSK_TCMDC: Inhibition of Plasmodium falciparum 3D7 LDH activity, using an LDH reporter assay. Test compounds present at 2uM).
Format: functional, organism-based

Row | SMILES | inhibition
1 | Cn1c(=O)n(C2CCN(CCCC(c3ccc(F)cc3)c3ccc(F)cc3)CC2)c2ccccc21 | 0%
2 | CC(C)(C)c1cc2cc(N(C(=O)c3ccc(C(F)(F)F)cc3)C3CCN(Cc4ccccc4)CC3)ccc2[nH]1 | 4%
